{"source": "patent US7192606B2", "about": "“Drugs for treating viral infections” (priority 2004, dated 2007)", "key": {"vaccinia virus": {"tested_on": "vaccinia virus", "type": "cell-based"}, "cowpox virus": {"tested_on": "cowpox virus", "type": "cell-based"}}}
{"molecule": "O=S(=O)(NC12CC3CC(CC(C3)C1)C2)NS(=O)(=O)NC12CC3CC(CC(C3)C1)C2", "note": "[Example 1, N,N^1-Bis(tricyclo[3.3.1.1^3,7]dec-1-yl)imidodisulfamide]", "values": [{"measurement": "SI (Selectivity Index, CC50/EC50)", "setting": "vaccinia virus", "result": "SI: 1,556"}, {"measurement": "SI (Selectivity Index, CC50/EC50)", "setting": "cowpox virus", "result": "SI: 77.8"}]}
{"molecule": "Sodium N,N^1-(Tricyclo[3.3.1.1^3,7]dec-1-yl)imidodisulfamide [Example 11]", "values": [{"measurement": "SI (Selectivity Index, CC50/EC50)", "setting": "vaccinia virus", "result": "SI: 1,625"}, {"measurement": "SI (Selectivity Index, CC50/EC50)", "setting": "cowpox virus", "result": "SI: 130"}]}
